Values from PubChem BioAssay AID504761 (Drosophila RNAi Screening Center, 2011).

Assay: 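Genome-wide fly cell screen for genes dengue virus requires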 (primary screen)
Cells: D.Mel-2 cells from Drosophila
Knock-down reagent: long dsRNA against Drosophila genes
Challenge: infection with dengue virus type 2; dose and infection time not stated
Read-out: 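Cells stained for dengue envelope protein and imaged; percent of infected cells per well on duplicate plates, ranked by infection, with stained nuclei counted for cell number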
Reading the numbers: infection score: higher = more virus-infected cells; cell count: higher = more cells in the well
Rule for the call: 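Very low infection ranking in both replicate wells (chance probability at most 0.065), then a retest showing infection dropped 1.5-fold or more at p below 0.05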
Calls: active = confirmed: knock-down lowers infection; inactive = not picked or not confirmed
The screen tested about 22,000 reagents; shown is a random part of those that have a named target and a result. In the full data, 116 (0.52%) were called active. 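Calls depend on retest data that are not deposited; infection was ranked per plate without normalising between plates; the unit of the infection score is not given.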 Raw values are not corrected between plates. The record does not give: the amount of reagent, the time to read-out.

no.	Gene	DRSC id	infection score, replicate 1	infection score, replicate 2	cell count, replicate 1	cell count, replicate 2	Call
1	CG11147	DRSC02129	11	2.97	2886	6466	inactive
2	CG11454	DRSC00310	13.7	4.34	5809	1473	inactive
3	CG11454	DRSC25138	2.68	4.1	6035	5874	inactive
4	Rbp1-like	DRSC19828	2.18	3.32	6468	6715	inactive
5	Rbp1-like	DRSC22075	9.69	7.65	6059	6421	inactive
6	Rbp1-like	DRSC25442	2.75	3.51	6299	6917	inactive
7	CG10226	DRSC09715	3.35	5.2	6689	6571	inactive
8	CG14455	DRSC11712	6.91	12.2	6268	5824	inactive
9	CG14455	DRSC29992	6.21	4.16	6172	6160	inactive
10	CG30486	DRSC06680	9.18	18.2	6723	5939	inactive
11	RpS18 (Ribosomal protein S18)	DRSC07540	11.3	3.55	2451	2394	inactive
12	CG17264	DRSC00500	6.84	0.56	6094	6568	inactive
13	CG17264	DRSC29452	9.58	21.3	5920	6101	inactive
14	Spt7	DRSC19997	3	2.57	7089	7226	inactive
15	Spt7	DRSC24902	13.8	10.1	4781	5774	inactive
16	CG8563	DRSC10996	3.71	3.3	6227	6399	inactive
17	CG11384	DRSC18628	3.52	1.01	6512	6701	inactive
18	CG14234	DRSC19317	4.69	3.92	5716	5996	inactive
19	CG14234	DRSC19589	8.22	1.81	5958	6635	inactive
20	Kdm3 (Lysine demethylase 3)	DRSC16393	1.51	3.6	6734	6759	inactive
21	Kdm3 (Lysine demethylase 3)	DRSC28659	9.37	19.6	4939	4051	inactive
22	CG5439	DRSC02861	12.3	13.7	6363	6221	inactive
23	CG5439	DRSC25932	1	3.09	6075	6431	inactive
24	CG1910	DRSC15400	1.13	1.77	5853	6200	inactive
25	COX4L (Cytochrome c oxidase subunit 4-like)	DRSC04841	9.15	7.08	5768	6620	inactive
26	tank	DRSC00461	43.1	24.5	5683	4926	inactive
27	RIOK2 (RIO kinase 2)	DRSC14413	6.81	7.96	5464	4259	inactive
28	Cpr50Cb (Cuticular protein 50Cb)	DRSC06975	4.15	22.8	6354	5864	inactive
29	Cpr50Cb (Cuticular protein 50Cb)	DRSC25171	14.9	3.31	6804	936	inactive
30	Pxd (Peroxidase)	DRSC16805	5.96	2.3	6510	6595	inactive
31	AP-2mu (Adaptor Protein complex 2, mu subunit)	DRSC14090	1.91	0.61	5616	6049	inactive
32	AP-2mu (Adaptor Protein complex 2, mu subunit)	DRSC28264	4.58	4.29	6196	3080	inactive
33	RNASEK (Ribonuclease kappa)	DRSC21641	1.38	6.05	5275	2051	inactive
34	AMPKalpha (AMP-activated protein kinase alpha subunit)	DRSC18714	1.96	3.17	3513	4421	inactive
35	AMPKalpha (AMP-activated protein kinase alpha subunit)	DRSC28055	17.1	6.49	5635	6089	inactive
36	swaPsi (swallow pseudogene)	DRSC21685	2.08	3.81	6054	6717	inactive
37	CG5532	DRSC04509	2.21	2.97	6642	6502	inactive
38	CG6650	DRSC10685	9.01	11.3	5835	5190	inactive
39	CG13876	DRSC08346	4.23	6.04	6285	6188	inactive
40	CG9806	DRSC18444	6.61	1.67	6232	6584	inactive
41	CG9806	DRSC27417	11.2	10.7	5843	6318	inactive
42	Ets97D (Ets at 97D)	DRSC16665	2.18	3.52	6601	6855	inactive
43	Ets97D (Ets at 97D)	DRSC27682	9.35	28.6	6438	3384	inactive
44	Gr5a (Gustatory receptor 5a)	DRSC18085	4.25	4.39	6464	6625	inactive
45	Klp31E (Kinesin-like protein at 31E)	DRSC03354	12.7	18.9	6468	6071	inactive
46	CG17683	DRSC21160	7.71	1.24	3503	3556	inactive
47	CG17683	DRSC27534	5.46	12	4815	1869	inactive
48	swm (second mitotic wave missing)	DRSC02012	12.3	20.1	6172	5793	inactive
49	swm (second mitotic wave missing)	DRSC21831	19.5	8.98	5127	4698	inactive
50	CG6788	DRSC20007	1.18	8.63	6594	5668	inactive
51	CG6788	DRSC24906	5.38	2.86	6006	6044	inactive
52	CG13947	DRSC00365	2.82	4.23	5893	6294	inactive
53	CG13947	DRSC25465	2.99	3.6	6024	6140	inactive
54	CG14683	DRSC17035	14	9.68	6760	6290	inactive
55	CG15330	DRSC18014	2.38	1.56	6390	6855	inactive
56	WDR79 (WD repeat domain 79)	DRSC03159	1.4	1.42	5933	6208	inactive
57	pira (pirate)	DRSC19494	16.5	17.3	4581	6955	inactive
58	fit (female-specific independent of transformer)	DRSC15280	0.81	4.12	6195	6038	inactive
59	Tsp42Eh (Tetraspanin 42Eh)	DRSC06190	18	16.9	6046	5414	inactive
60	CG7542	DRSC10868	4.88	1.71	6129	6267	inactive
61	CG5404	DRSC15793	2.5	1.86	6287	6452	inactive
62	CG5404	DRSC28832	24.3	0.92	4180	541	inactive
63	CG8420	DRSC16418	1.73	7.86	6463	6448	inactive
64	CG6576	DRSC10663	0.85	0.99	6142	6445	inactive
65	CG6576	DRSC28084	20.5	3.38	5808	6884	inactive
66	Uev1A (Ubiquitin-conjugating enzyme variant 1A)	DRSC09763	11.1	11.2	5351	5837	inactive
67	CG12682	DRSC17873	3.86	2.2	5914	5783	inactive
68	Taf13 (TBP-associated factor 13)	DRSC02106	6.85	26.2	1853	6377	inactive
69	CG17928	DRSC02644	11.5	2.66	4859	6460	inactive
70	CG31559	DRSC12172	8.68	2.9	6339	6204	inactive
71	CG31559	DRSC12270	4.27	3.12	6227	6632	inactive
72	CG31076	DRSC16017	3.9	5.91	5745	6261	inactive
73	Gtpx	DRSC08221	4.67	9.34	6573	4862	inactive
74	Gtpx	DRSC22117	2.24	6.29	6570	7165	inactive

Reformatted: results already given
Gene	DRSC id	infection score, replicate 1	infection score, replicate 2	cell count, replicate 1	cell count, replicate 2	Call
Pxd (Peroxidase)	DRSC16805	5.96	2.3	6510	6595	inactive
AP-2mu (Adaptor Protein complex 2, mu subunit)	DRSC14090	1.91	0.61	5616	6049	inactive
AP-2mu (Adaptor Protein complex 2, mu subunit)	DRSC28264	4.58	4.29	6196	3080	inactive
RNASEK (Ribonuclease kappa)	DRSC21641	1.38	6.05	5275	2051	inactive
